{
  "source": "paper PMC7179183",
  "about": "“Design of Biphenyl-Substituted Diarylpyrimidines with a Cyanomethyl Linker as HIV-1 NNRTIs via a Molecular Hybridization Strategy” (Molecules, 2020)",
  "data": [
    {"test_system": "WT HIV-1 (strain IIIB)", "assay_type": "cell-based", "conditions": "MT-4 cells", "method": "(§1) The newly synthesized compounds were evaluated for their potency and cytotoxicity against the WT HIV-1 (strain IIIB) in MT-4 cells using the MTT method. The biological evaluation results are represented as EC50 values (anti-HIV-1 activity), CC50 values (cytotoxicity), and SI values (selectivity index, CC50/EC50 ratio).", "units": {"Improvement of activity against WT HIV-1 compared with 10c": "fold"}, "values": [
      {"smiles": "N#Cc1ccc(Nc2nccc(C(C#N)c3ccc(-c4ccc(C#N)cc4)cc3F)n2)cc1", "note": "(racemic) [Compound 10p, (±)-4′-(cyano(2-((4-cyanophenyl)amino)pyrimidin-4-yl)methyl)-3′-fluoro-[1,1′-biphenyl]-4-carbonitrile]", "Improvement of activity against WT HIV-1 compared with 10c": 12}
    ]},
    {"test_system": "WT HIV-1 (strain IIIB)", "assay_type": "cell-based", "conditions": "selectivity index, ratio CC50/EC50 (WT)", "method": "as §1", "values": [
      {"smiles": "N#Cc1ccc(Nc2nccc(C(C#N)c3ccc(-c4ccccc4)cc3)n2)cc1", "note": "(racemic) [Compound 10a, (±)-4-((4-([1,1′-biphenyl]-4-yl(cyano)methyl)pyrimidin-2-yl)amino)benzonitrile]", "SI (IIIB)": 11},
      {"smiles": "N#Cc1ccc(Nc2nccc(C(C#N)c3ccc(-c4ccccc4)c(F)c3)n2)cc1", "note": "(racemic) [Compound 10b, (±)-4-((4-(cyano(2-fluoro-[1,1′-biphenyl]-4-yl)methyl)pyrimidin-2-yl)amino)benzonitrile]", "SI (IIIB)": 6},
      {"smiles": "N#Cc1ccc(Nc2nccc(C(C#N)c3ccc(-c4ccccc4)cc3F)n2)cc1", "note": "(racemic) [Compound 10c, (±)-4-((4-(cyano(3-fluoro-[1,1′-biphenyl]-4-yl)methyl)pyrimidin-2-yl)amino)benzonitrile]", "SI (IIIB)": 73},
      {"smiles": "Cc1ccccc1-c1ccc(C(C#N)c2ccnc(Nc3ccc(C#N)cc3)n2)c(F)c1", "note": "(racemic) [Compound 10d, (±)-4-((4-(cyano(3-fluoro-2′-methyl-[1,1′-biphenyl]-4-yl)methyl)pyrimidin-2-yl)amino)benzonitrile]", "SI (IIIB)": 70},
      {"smiles": "Cc1cccc(-c2ccc(C(C#N)c3ccnc(Nc4ccc(C#N)cc4)n3)c(F)c2)c1", "note": "(racemic) [Compound 10e, (±)-4-((4-(cyano(3-fluoro-3′-methyl-[1,1′-biphenyl]-4-yl)methyl)pyrimidin-2-yl)amino)benzonitrile]", "SI (IIIB)": 63},
      {"smiles": "Cc1ccc(-c2ccc(C(C#N)c3ccnc(Nc4ccc(C#N)cc4)n3)c(F)c2)cc1", "note": "(racemic) [Compound 10f, (±)-4-((4-(cyano(3-fluoro-4′-methyl-[1,1′-biphenyl]-4-yl)methyl)pyrimidin-2-yl)amino)benzonitrile]", "SI (IIIB)": 72},
      {"smiles": "COc1ccccc1-c1ccc(C(C#N)c2ccnc(Nc3ccc(C#N)cc3)n2)c(F)c1", "note": "(racemic) [Compound 10g, (±)-4-((4-(cyano(3-fluoro-2′-methoxy-[1,1′-biphenyl]-4-yl)methyl)pyrimidin-2-yl)amino)benzonitrile]", "SI (IIIB)": 49},
      {"smiles": "COc1cccc(-c2ccc(C(C#N)c3ccnc(Nc4ccc(C#N)cc4)n3)c(F)c2)c1", "note": "(racemic) [Compound 10h, (±)-4-((4-(cyano(3-fluoro-3′-methoxy-[1,1′-biphenyl]-4-yl)methyl)pyrimidin-2-yl)amino)benzonitrile]", "SI (IIIB)": 20},
      {"smiles": "COc1ccc(-c2ccc(C(C#N)c3ccnc(Nc4ccc(C#N)cc4)n3)c(F)c2)cc1", "note": "(racemic) [Compound 10i, (±)-4-((4-(cyano(3-fluoro-4′-methoxy-[1,1′-biphenyl]-4-yl)methyl)pyrimidin-2-yl)amino)benzonitrile]", "SI (IIIB)": 361},
      {"smiles": "N#Cc1ccc(Nc2nccc(C(C#N)c3ccc(-c4ccccc4F)cc3F)n2)cc1", "note": "(racemic) [Compound 10j, (±)-4-((4-(cyano(2′,3-difluoro-[1,1′-biphenyl]-4-yl)methyl)pyrimidin-2-yl)amino)benzonitrile]", "SI (IIIB)": 131},
      {"smiles": "N#Cc1ccc(Nc2nccc(C(C#N)c3ccc(-c4cccc(F)c4)cc3F)n2)cc1", "note": "(racemic) [Compound 10k, (±)-4-((4-(cyano(3,3′-difluoro-[1,1′-biphenyl]-4-yl)methyl)pyrimidin-2-yl)amino)benzonitrile]", "SI (IIIB)": 55},
      {"smiles": "N#Cc1ccc(Nc2nccc(C(C#N)c3ccc(-c4ccc(F)cc4)cc3F)n2)cc1", "note": "(racemic) [Compound 10l, (±)-4-((4-(cyano(3,4′-difluoro-[1,1′-biphenyl]-4-yl)methyl)pyrimidin-2-yl)amino)benzonitrile]", "SI (IIIB)": 139},
      {"smiles": "N#Cc1ccc(Nc2nccc(C(C#N)c3ccc(-c4ccccc4Cl)cc3F)n2)cc1", "note": "(racemic) [Compound 10m, (±)-4-((4-((2′-chloro-3-fluoro-[1,1′-biphenyl]-4-yl)(cyano)methyl)pyrimidin-2-yl)amino)benzonitrile]", "SI (IIIB)": 81},
      {"smiles": "N#Cc1ccc(Nc2nccc(C(C#N)c3ccc(-c4cccc(Cl)c4)cc3F)n2)cc1", "note": "(racemic) [Compound 10n, (±)-4-((4-((3′-chloro-3-fluoro-[1,1′-biphenyl]-4-yl)(cyano)methyl)pyrimidin-2-yl)amino)benzonitrile]", "SI (IIIB)": 71},
      {"smiles": "N#Cc1ccc(Nc2nccc(C(C#N)c3ccc(-c4ccc(Cl)cc4)cc3F)n2)cc1", "note": "(racemic) [Compound 10o, (±)-4-((4-((4′-chloro-3-fluoro-[1,1′-biphenyl]-4-yl)(cyano)methyl)pyrimidin-2-yl)amino)benzonitrile]", "SI (IIIB)": 153},
      {"smiles": "N#Cc1ccc(Nc2nccc(C(C#N)c3ccc(-c4ccc(C#N)cc4)cc3F)n2)cc1", "note": "(racemic) [Compound 10p, (±)-4′-(cyano(2-((4-cyanophenyl)amino)pyrimidin-4-yl)methyl)-3′-fluoro-[1,1′-biphenyl]-4-carbonitrile]", "SI (IIIB)": 1361},
      {"smiles": "Nc1ccn([C@@H]2CS[C@H](CO)O2)c(=O)n1", "note": "[Compound 3TC, lamivudine, reference compound]", "SI (IIIB)": ">11"},
      {"smiles": "Cc1cc(/C=C/C#N)cc(C)c1Nc1ccnc(Nc2ccc(C#N)cc2)n1", "note": "[RPV, rilpivirine, reference compound]", "SI (IIIB)": 3747}
    ]}
  ]
}
